A mixed list of measured activities; the numbers were collected in NIAID ChemDB.

Shared fields: growth or infection tests

Neighbouring rows are from separate reports. A number after MIC or MFC names an inhibition level or a share of isolates. Blank or dashed fields: not listed here.

SMILES	organism	strain or isolate	read by	setting	read-out	value
Clc1ccccc1Cn1cc(/C=N/Nc2nncs2)c2ccccc21	Mycobacterium bovis BCG	1173P2	broth dilution	48 h	MIC100	31.25 µg/mL
CCC1CN(c2cc3c(cc2F)c(=O)c(C(=O)O)cn3C2CC2)CCN1	Mycobacterium smegmatis	KD2008 (GYRA G89C)			MIC99	3.2 µg/mL
O=C(Nc1ccc(Cl)cc1)c1cc(Cl)ccc1OP(=O)(Oc1ccccc1)Oc1ccccc1	Mycobacterium kansasii	My 6509/96		14 d	MIC	8 µM
CCCCCn1cc(/C=N/NC(=S)NN)c2ccccc21	Mycobacterium bovis BCG	1173P2	broth dilution	24 h	MIC100	>500 µg/mL
CC1CN(c2cc3c(cc2F)c(=O)c(C(=O)O)cn3C2CC2)CC(C)N1	Mycobacterium smegmatis	KD2003 (GYRA D95G)			MIC99	3 µg/mL
O=C(Nc1ccc(Br)cc1)c1cc(Cl)ccc1OP(=O)(OCc1ccccc1)OCc1ccccc1	Mycobacterium kansasii	My 235/80		21 d	MIC	32 µM
CCN(CC)c1nc2c(s1)c1c(O)c3c(O)c(C)c4c(c32)C(=O)[C@@](C)(O/C=C/[C@H](OC)[C@@H](C)[C@@H](OC(C)=O)[C@H](C)[C@H](O)[C@H](C)[C@@H](O)[C@@H](C)/C=C/C=C(/C)C(=O)N1)O4	Mycobacterium avium	50 strains			MIC50	0.58 µg/mL
CC[C@@H](CO)NCCN[C@@H](CC)CO	Mycobacterium avium complex	2212-4			MBC	30 µg/mL
O=C(Nc1ccc(Cl)cc1)c1cc(Cl)ccc1OP(=O)(OCc1ccccc1)OCc1ccccc1	Mycobacterium kansasii	My 6509/96		14 d	MIC	32 µM
COc1c(N2CCNCC2)c(F)cc2c(=O)c(C(=O)O)cn(C3CC3)c12	Mycobacterium smegmatis	KD2008 (GYRA G89C)			MIC99	0.94 µg/mL
COc1cc(Cc2cnc(N)nc2N)cc(OC)c1OCCCNc1ccc(S(=O)(=O)c2ccc(N)cc2)cc1	Mycobacterium ulcerans	Isolate 5155			MIC	2 µg/mL
CN(C)c1cc(NC(=O)CNC(C)(C)C)c(O)c2c1C[C@H]1C[C@H]3[C@H](N(C)C)C(=O)C(C(N)=O)=C(O)[C@@]3(O)C(=O)C1=C2O	Mycobacterium massiliense	X7	broth dilution		MIC	1 µg/mL
CC1CN(c2c(F)cc3c(=O)c(C(=O)O)cn(C4CC4)c3c2F)CC(C)N1	Mycobacterium smegmatis	KD1163 (GRYA+)			MIC99	0.049 µg/mL
O=C(Nc1ccc(Cl)cc1)c1cc(Cl)ccc1OP(=O)(c1ccccc1)c1ccccc1	Mycobacterium kansasii	My 235/80		7 d	MIC	4 µM
N#Cc1ccc(Cn2cc(/C=N/NC(=S)NN)c3ccccc32)cc1	Mycobacterium bovis BCG	1173P2	broth dilution	24 h	MIC100	>500 µg/mL
CCN1CCN(c2c(F)cc3c(=O)c(C(=O)O)cn(C4CC4)c3c2OC)CC1	Mycobacterium smegmatis	KD2003 (GYRA D95G)			MIC99	1 µg/mL
O=C(Nc1ccc(C(F)(F)F)cc1)c1cc(Cl)ccc1OP(=O)(Oc1ccccc1)Oc1ccccc1	Mycobacterium kansasii	My 6509/96		7 d	MIC	4 µM
CCCn1cc(/C=N/Nc2nncs2)c2ccccc21	Mycobacterium bovis BCG	1173P2	broth dilution	48 h	MIC100	250 µg/mL
O=C1c2cc(Cl)ccc2OP(=O)(c2ccccc2)N1c1ccc(C(F)(F)F)cc1	Mycobacterium kansasii	My 235/80		7 d	MIC	8 µM
CC[C@H]1OC(=O)[C@H](C)[C@@H](O[C@H]2C[C@@](C)(OC)[C@@H](O)[C@H](C)O2)[C@H](C)[C@@H](O[C@@H]2O[C@H](C)C[C@H](N(C)C)[C@H]2O)[C@](C)(OC)C[C@@H](C)C(=O)[C@H](C)[C@@H](O)[C@]1(C)O	Mycobacterium bolletii		broth dilution		MIC	2 µg/mL
O=C1c2cc(Cl)ccc2OP(=O)(c2ccccc2)N1c1ccc(Cl)c(Cl)c1	Mycobacterium kansasii	My 235/80		21 d	MIC	8 µM
CCOc1cc(Cc2cnc(N)nc2N)cc(OCC)c1-n1cccc1	Mycobacterium ulcerans	Isolate 94-886			MBC	1 µg/mL
O=C1c2ccccc2OP(=O)(c2ccccc2)N1c1ccccc1	Mycobacterium kansasii	My 235/80		14 d	MIC	500 µM
CCN1CCN(c2c(F)cc3c(=O)c(C(=O)O)cn(C4CC4)c3c2F)CC1	Mycobacterium smegmatis	KD1990 (GYRA D95A)			MIC99	1.5 µg/mL

Again, the opening 2 rows:

SMILES	organism	strain or isolate	read by	setting	read-out	value
Clc1ccccc1Cn1cc(/C=N/Nc2nncs2)c2ccccc21	Mycobacterium bovis BCG	1173P2	broth dilution	48 h	MIC100	31.25 µg/mL
CCC1CN(c2cc3c(cc2F)c(=O)c(C(=O)O)cn3C2CC2)CCN1	Mycobacterium smegmatis	KD2008 (GYRA G89C)			MIC99	3.2 µg/mL